Construct, isoform or probe ends are uncertain for at least one entry.

The series concerns SiaR + CRP. In words: EMSA. As to conditions: 100 uM cAMP, 1 uM each, higher shift, simultaneous binding; 150 mM KCl, 0.1 mM DTT, 0.1 mM EDTA, 10 mM Tris pH 7.4, 15 nM probe, room temperature 20 min; 6% gel, 0.5x TBE; recombinant protein; label: none (SYBR Green stain); probe letters rebuilt from the primers and the genome. For orientation: A gel shift assay detects complexes by their altered migration in electrophoresis.

Consider “ACACCCCTCATTTAAATCTGAATAAATCACTTTAAAATTAATTTAATCCACATAAAACAATCTTTTATAAATTGTAATATGCTTATATTTTCATCATTTAACATTATTATATGAAAAAGAAATGCCATTTTAAAGAATATTTTTGAAGTGTTTTTTCACAAATGTGATCAACTTCTCATTTTTGAAATAAAACTCGTAAAACTATTTTAAATTTGTTTTTTTACTCTTAGAATTGCTCTCGAATCCTATTTTGGGGG (double strand) [nan-siaPT intergenic region probe]”, for which the binding result is “binds”.

The values above are taken from article PMC2946308, “Sialic acid transport and catabolism are cooperatively regulated by SiaR and CRP in nontypeable Haemophilus influenzae” (BMC Microbiology, 2010).
